{"source": "paper PMC5634595", "about": "“Properties of halogenated and sulfonated porphyrins relevant for the selection of photosensitizers in anticancer and antimicrobial therapies” (PLoS ONE, 2017)", "system": "A549, CT26 and 2H11 cells", "experiment": "Time-dependent cellular uptake (cell line not told apart)", "assay_type": "cell-based"}
{"smiles": "CCNS(=O)(=O)c1ccc(Cl)c(-c2c3nc(c(-c4c(Cl)ccc(S(=O)(=O)NCC)c4Cl)c4ccc([nH]4)c(-c4c(Cl)ccc(S(=O)(=O)NCC)c4Cl)c4nc(c(-c5c(Cl)ccc(S(=O)(=O)NCC)c5Cl)c5ccc2[nH]5)C=C4)C=C3)c1Cl", "note": "[Cl2PEt, 5,10,15,20-tetrakis(2,6-dichloro-3-N-ethylsulfamoylphenyl)porphyrin]", "values": [{"measurement": "Incubation time after which uptake stabilizes", "setting": "PS in L121 micelles", "value": "4 to 6", "unit": "h"}, {"measurement": "Incubation time over which accumulation continues to increase", "setting": "from serum-DMSO medium, without polymer", "value": 20, "unit": "h"}]}
